“And” between values parts separate entries of the source, which are not always exact repeats. Identical values can stand only once. Like-named read-outs stand apart in the source and are kept apart here.
Assays:
[1] = test system: CgBdf1 BD1; conditions: for Normalized (0 to 100%), WT, Average / Raw data, WT, Left / Raw data, WT, Rigt: CgBdf1 BD1 WT; for Normalized (0 to 100%), WT, Average / Normalized (0 to 100%), YF mutant, Average: normalized peptide array signal; for Raw data, WT, Left / Raw data, WT, Rigt / Raw data, YF mutant, Left / Raw data, YF mutant, Right: peptide array signal; for Raw data, WT, Left / Raw data, YF mutant, Left: left replicate; for Raw data, WT, Rigt / Raw data, YF mutant, Right: right replicate; for Normalized (0 to 100%), YF mutant, Average / Raw data, YF mutant, Left / Raw data, YF mutant, Right: CgBdf1 BD1 YF mutant
[2] = target: CgBdf1 BD1 (Candida glabrata, UniProt Q6FWV7); assay: HTRF assay, inhibition of H4ac4 peptide binding; design: species or system C. glabrata
[3] = target: CgBdf1 BD2 (Candida glabrata, UniProt Q6FWV7)
[4] = test system: CgBdf1 BD2; conditions: for Normalized (0 to 100%), WT, Average / Raw data, WT, Left / Raw data, WT, Rigt: CgBdf1 BD2 WT; for Normalized (0 to 100%), WT, Average / Normalized (0 to 100%), YF mutant, Average: normalized peptide array signal; for Raw data, WT, Left / Raw data, WT, Rigt / Raw data, YF mutant, Left / Raw data, YF mutant, Right: peptide array signal; for Raw data, WT, Left / Raw data, YF mutant, Left: left replicate; for Raw data, WT, Rigt / Raw data, YF mutant, Right: right replicate; for Normalized (0 to 100%), YF mutant, Average / Raw data, YF mutant, Left / Raw data, YF mutant, Right: CgBdf1 BD2 YF mutant
[5] = test system: C. glabrata strains expressing WT and mutant Bdf1; assay: Growth inhibition in liquid media, C. glabrata lab strains; conditions: Exp 1-3, Figure S9A
[6] = read-out: IC50 CgBdf1 BD1, Table S3, estimate, preliminary single-replicate HTRF assay
[7] = read-out: IC50 CgBdf1 BD2, Table S3, estimate, preliminary single-replicate HTRF assay
[8] = Fig 1D/2A original data, single experiments Exp1-3

The chains behind the UniProt entries cited, without tags or fusion partners. Residues count along the entry.
UniProt Q6FWV7, 100-228 limits assumed: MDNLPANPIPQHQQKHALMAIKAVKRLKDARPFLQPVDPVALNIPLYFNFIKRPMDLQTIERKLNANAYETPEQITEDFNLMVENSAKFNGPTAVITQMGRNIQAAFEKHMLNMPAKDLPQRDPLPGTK
UniProt Q6FWV7, 269-391 limits assumed: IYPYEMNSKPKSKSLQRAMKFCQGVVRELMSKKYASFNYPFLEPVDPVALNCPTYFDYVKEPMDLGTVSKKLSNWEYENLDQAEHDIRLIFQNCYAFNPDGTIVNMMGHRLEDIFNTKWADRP

SMILES	Normalized (0 to 100%), WT, Average [1] [%]	Raw data, WT, Left [1]	Raw data, WT, Rigt [1]	Normalized (0 to 100%), YF mutant, Average [1] [%]	Raw data, YF mutant, Left [1]	Raw data, YF mutant, Right [1]	IC50 [2, 6] [µM]	IC50 [3, 7] [µM]	Normalized (0 to 100%), WT, Average [4] [%]	Raw data, WT, Left [4]	Raw data, WT, Rigt [4]	Normalized (0 to 100%), YF mutant, Average [4] [%]	Raw data, YF mutant, Left [4]	Raw data, YF mutant, Right [4]	OD at 600 nm ([5]; WT BDF1 strain)	OD at 600 nm ([5]; bdf1-bd1Δ strain)	OD at 600 nm ([5]; bdf1-bd2Δ strain)	further results
CC(=O)Nc1ccc(CCc2nc3ccc(C(=O)NCc4ccc5c(c4)OCO5)cc3[nH]2)cc1	6.63	0.01008	0.1226	0.509	0.003393	0.006786	21	> 20	0.936	0.004055	0.01466	0.706	0.004294	0.009816	–	–	–	–
COc1cc2nc(C(=O)N3CCCCC3)cc(Nc3ccc(Br)cc3)c2cc1OC	–	–	–	–	–	–	–	–	0.873	0.009357	0.00811	0.782	0.01166	0.003988	0.6420 and 0.6500 and 0.6260	0.3943 and 0.3973 and 0.3593	0.2733 and 0.2603 and 0.2563	–
CCC(C)NC(=O)Nc1cc2c(cc1Oc1ccccc1)n(C)c(=O)n2C (stereo not drawn)	1.42	0.007246	0.02111	0.494	0.006786	0.003085	–	–	0.686	0.00811	0.005614	1	0.01656	0.004294	0.5373 and 0.5303 and 0.5753	0.2883 and 0.3133 and 0.2963	0.2283 and 0.1973 and 0.2093	IC50 ([2]; CgBD1, individual experiments Exp1-3, Table S4): 4.4 µM and 4.66 µM and 5.85 µM; pIC50 CgBD1 [2, 8]: 5.356 and 5.332 and 5.233; IC50 ([2]; read-out: IC50 CgBD1, Table S4, means ± SD, n=3): 4.97 µM; IC50 ([3]; CgBD2, individual experiments Exp1-3, Table S4): 1.12 µM and 0.68 µM and 1.1 µM; pIC50 CgBD2 [3, 8]: 5.950 and 6.168 and 5.958; IC50 ([3]; read-out: IC50 CgBD2, Table S4, means ± SD, n=3): 0.97 µM
CCc1nn2c(CNC(=O)c3cccc(OC)c3)c(-c3ccccc3)nc2s1	18	0.1207	0.2328	0.478	0.006169	0.003393	> 20	6.5	0.858	0.005926	0.01123	0.598	0.008589	0.003374	–	–	–	–
CC(=O)N1CCc2[nH]c3ccc(C(=O)Nc4ccc(N5CCOCC5)cc4)cc3c2C1	–	–	–	–	–	–	–	–	0.671	0.00811	0.005303	0.675	0.01012	0.003374	0.5087 and 0.5197 and 0.5267	0.2540 and 0.2480 and 0.2560	0.1487 and 0.1237 and 0.1367	–
CCC(=O)Nc1ccc(CCc2nc3ccc(C(=O)NCc4ccc(C)o4)cc3[nH]2)cc1	3	0.0003151	0.05766	0.386	0.003085	0.004627	19	> 20	0.639	0.004679	0.00811	0.613	0.007362	0.004908	–	–	–	–

Source: paper PMC11904993, “Humanized Candida and NanoBiT Assays Expedite Discovery of Bdf1 Bromodomain Inhibitors With Antifungal Potential” (Advanced Science, 2025)
